Anti-infective test results gathered from many reports (values: NIAID ChemDB through PubChem).

All rows: whole-cell or culture tests; agent: Staphylococcus aureus; endpoint: MIC

Neighbouring rows are from separate reports.

CC(C)NCCNc1cc2c(cc1F)c(=O)c(C(=O)O)cn2C1CC1 ; strain or isolate: ATCC 6538P ; value: >100 µg/mL
O=C(CCC(=O)Nc1cc(C(F)(F)F)cc(C(F)(F)F)c1)Nc1cc(C(F)(F)F)cc(C(F)(F)F)c1 ; strain or isolate: MI273 ; value: >300 µM
COCC(=O)Nc1ccc(N2C[C@H](CNC(C)=O)OC2=O)cc1F ; strain or isolate: ATCC 29213 (linezolid-resistant) ; value: >64 µg/mL
O=C(NNc1ccccn1)Nc1cc(C(F)(F)F)cc(C(F)(F)F)c1 ; strain or isolate: MI273 ; value: >300 µM
CC[C@H]1OC(=O)[C@H](C)C(=O)[C@H](C)[C@@H](O[C@@H]2O[C@H](C)C[C@H](N(C)C)[C@H]2O)[C@@]2(C)C[C@@H](C)C(=NC(C)=O)[C@H](C)C(OC/C(=C\C#Cc3ccccc3)CO2)[C@]1(C)O ; strain or isolate: 29213 (erythromycin-susceptible) ; value: 0.25 µg/mL
CCCC[C@H](CC(=O)NO)C(=O)N1CCC[C@H]1C(=O)NC ; strain or isolate: 3 strains ; value: 2–8 µg/mL
O=C(O)c1cn(C2CC2)c2cc(-c3ccc4c(c3)CNC4)ccc2c1=O ; strain or isolate: FDA209P ; value: 0.0625 µg/mL
CC(=O)NC[C@H]1CN(c2ccc(NC(=O)C3=CSNN3)c(F)c2)C(=O)O1 ; strain or isolate: ATCC 29213 (linezolid-resistant) ; value: >64 µg/mL
O=C(O)c1cn(C2CC2)c2c(OC(F)F)c(-c3ccc4c(c3)CNC4)ccc2c1=O ; strain or isolate: FDA209P ; value: 0.0625 µg/mL
Cn1cc(C(=O)O)c(=O)c2cc3cc(F)c(NC4CCCCC4)cc3nc21 ; strain or isolate: IP8203 (quinolone-sensitive) ; value: 1 µg/mL
O=C(O)c1cn(C2CC2)c2cc(NCCCO)c(F)cc2c1=O ; strain or isolate: ATCC 5278 (methicillin-resistant) ; value: >100 µg/mL
O=C(Nc1cc(C(F)(F)F)cc(C(F)(F)F)c1)NN1CCOCC1 ; strain or isolate: MI273 ; value: 100 µM
COc1c(-c2ccc3c(c2)CNC3)ccc2c(=O)c(C(=O)O)cn(C3CC3)c12 ; strain or isolate: FDA209P ; value: 0.0313 µg/mL
Clc1cccc2c1NC(c1c[nH]c3ccc(Br)cc13)C1CCOC21 ; strain or isolate: Methicillin-resistant ; value: 0.31 µg/mL
CC(=O)NC[C@H]1CN(c2ccc(OC3CCN(C(=O)COCc4ccccc4)CC3)c(F)c2)C(=O)O1 ; strain or isolate: OC4172 methicillin-susceptible ; value: 16 µg/mL
O=C(O)c1cn(C2CC2)c2cc(-c3ccc4c(c3)CNC4)c(F)cc2c1=O ; strain or isolate: FDA209P ; value: 0.0313 µg/mL
Cc1c(NC2CC2)c(F)cc2c(=O)c(C(=O)O)cn(-c3cc(N)c(F)cc3F)c12 ; strain or isolate: SMITH ; value: <0.004 µg/mL
CC(=O)NC[C@H]1CN(c2ccc3c(c2)OCc2nccn2-3)C(=O)O1 ; strain or isolate: 25701 ; value: 0.5 µg/mL
O=C(NC[C@H]1CN(c2ccc(C3CCS(=O)(=O)CC3)c(F)c2)C(=O)O1)Nc1ccc(Cl)c(Cl)c1 ; strain or isolate: ATCC 29213 (linezolid-resistant) ; value: >64 µg/mL
C[C@H]1NCc2cc(-c3ccc4c(=O)c(C(=O)O)cn(C5CC5)c4c3OC(F)F)ccc21 ; strain or isolate: A15090 (methicillin-susceptible) ; value: 0.03 µg/mL
O=C(NC[C@H]1CN(c2ccc(C3CCS(=O)(=O)CC3)c(F)c2)C(=O)O1)C1CC1 ; strain or isolate: UC 12673 ; value: 8 µg/mL
CC(=O)NC[C@H]1CN(c2ccc(OC3CCN(C(=O)c4cccs4)CC3)c(F)c2)C(=O)O1 ; strain or isolate: OC4172 methicillin-susceptible ; value: 16 µg/mL
CC[C@H]1OC(=O)[C@H](C)C(=O)[C@H](C)[C@@H](O[C@@H]2O[C@H](C)C[C@H](N(C)C)[C@H]2O)[C@@]2(C)C[C@@H](C)C(=NC(=O)CN)[C@H](C)C(OC/C(=C\C=C\c3ccccc3)CO2)[C@]1(C)O ; strain or isolate: 33591 (erythromycin methicillin-resistant) ; value: 32 µg/mL
NC(=O)NNC(=O)Nc1cc(C(F)(F)F)cc(C(F)(F)F)c1 ; strain or isolate: MI273 ; value: >446 µM
CC[C@H]1OC(=O)[C@H](C)C(=O)[C@H](C)[C@@H](O[C@@H]2O[C@H](C)C[C@H](N(C)C)[C@H]2O)[C@@]2(C)C[C@@H](C)C(=NC(C)=O)[C@H](C)C(OC/C(=C\c3ccccc3)CO2)[C@]1(C)O ; strain or isolate: 33591 (erythromycin methicillin-resistant) ; value: >64 µg/mL
CC(=O)NC[C@H]1CN(c2ccc(NC(=O)c3ccc(/C=N/O)o3)c(F)c2)C(=O)O1 ; strain or isolate: ATCC 29213 (linezolid-resistant) ; value: >64 µg/mL
CC(=O)NC[C@H]1CN(c2ccc(N3CCN(C(=O)CO)CC3)c(F)c2)C(=O)O1 ; strain or isolate: UC9213 ; value: 4 µg/mL
CC(=O)NC[C@H]1CN(c2ccc(OC3CCN(C(=O)COCc4ccccc4)CC3)nc2)C(=O)O1 ; strain or isolate: OC4172 methicillin-susceptible ; value: 128 µg/mL
CC(C)(C)n1cc(C(=O)O)c(=O)c2cc(F)c(N3C[C@@H]4C[C@H]3CN4)nc21 ; strain or isolate: A9537 ; value: 0.06 µg/mL
CN1COc2c(N3CC4C5CCC(N)(CC5)C4C3)c(F)c(N)c3c(=O)c(C(=O)O)cn1c23 ; strain or isolate: ICB 25701 ; value: 2 µg/mL
CC(=O)NC[C@H]1CN(c2ccc(OC3CCN(C(=O)COCc4ccncc4)CC3)c(F)c2)C(=O)O1 ; strain or isolate: OC4172 methicillin-susceptible ; value: 16 µg/mL
COCCN(CCOC)c1cc2c(cc1F)c(=O)c(C(=O)O)cn2C1CC1 ; strain or isolate: ATCC 5278 (methicillin-resistant) ; value: >100 µg/mL
CO/N=C1\CN(c2nc3c(cc2F)c(=O)c(C(=O)O)cn3C2CC2)CC1CN ; strain or isolate: Giorgio ; value: ≤0.008 µg/mL
Cc1c(NC(C)C)c(F)cc2c(=O)c(C(=O)O)cn(-c3cc(N)c(F)cc3F)c12 ; strain or isolate: SMITH ; value: 0.004 µg/mL
CCNCCCN(CC)c1cc2c(cc1F)c(=O)c(C(=O)O)cn2C1CC1 ; strain or isolate: ATCC 6538P ; value: 6.25 µg/mL
CC[C@H]1OC(=O)[C@H](C)C(=O)[C@H](C)[C@@H](O[C@@H]2O[C@H](C)C[C@H](N(C)C)[C@H]2O)[C@@]2(C)C[C@@H](C)C(=NC(C)=O)[C@H](C)C(OC/C(=C\C=C\c3ccccc3)CO2)[C@]1(C)O ; strain or isolate: 27660 (erythromycin-resistant) ; value: 0.5 µg/mL
Cc1c(N)c(F)cc2c(=O)c(C(=O)O)cn(-c3cc(N)c(F)cc3F)c12 ; strain or isolate: W806 (methicillin-resistant) ; value: 2 µg/mL
Cc1ccc2[nH]cc(C3Nc4ccc(Cl)cc4C4OCCC34)c2c1 ; strain or isolate: Methicillin-resistant ; value: >25 µg/mL
CN(C)c1cc(NC(=O)CNC(C)(C)C)c(O)c2c1C[C@H]1C[C@H]3[C@H](N(C)C)C(=O)C(C(N)=O)=C(O)[C@@]3(O)C(=O)C1=C2O ; strain or isolate: Oxacillin-resistant ; value: ≤0.25 µg/mL
C[C@H]1COc2c(N3CCN(C)CC3)c(F)cc3c(=O)c(C(=O)O)cn1c23 ; strain or isolate: OC39 methicillin-susceptible ; value: 0.25 µg/mL
NC(=O)CNc1cc2c(cc1F)c(=O)c(C(=O)O)cn2C1CC1 ; strain or isolate: ATCC 5278 (methicillin-resistant) ; value: >100 µg/mL
CC[C@H]1OC(=O)[C@H](C)C(=O)[C@H](C)[C@@H](O[C@@H]2O[C@H](C)C[C@H](N(C)C)[C@H]2O)[C@@]2(C)C[C@@H](C)C(=NC(C)=O)[C@H](C)C(OC/C(=C\C=C\c3cccnc3)CO2)[C@]1(C)O ; strain or isolate: 27660 (erythromycin-resistant) ; value: 0.5 µg/mL
CCOC(CNc1cc2c(cc1F)c(=O)c(C(=O)O)cn2C1CC1)OCC ; strain or isolate: ATCC 5278 (methicillin-resistant) ; value: >100 µg/mL
CC(=O)NC[C@H]1CN(c2ccc(C3CCS(=O)(=O)CC3)c(F)c2)C(=O)O1 ; strain or isolate: UC 12673 ; value: 2 µg/mL

For reference, 3 entries again:

structure | strain or isolate | value
O=C(O)c1cn(C2CC2)c2cc(-c3ccc4c(c3)CNC4)ccc2c1=O | FDA209P | 0.0625 µg/mL
CO/N=C1\CN(c2nc3c(cc2F)c(=O)c(C(=O)O)cn3C2CC2)CC1CN | Giorgio | ≤0.008 µg/mL
CCCC[C@H](CC(=O)NO)C(=O)N1CCC[C@H]1C(=O)NC | 3 strains | 2–8 µg/mL

Two numbers with a dash give a range or band.